From paper PMC4031664 (Prion, 2013) come the findings set out here.

Sequences of proteins named here, by UniProt entry; tags and fusion partners are left off.
UniProt P04925, whole entry, looked up, tested part not stated: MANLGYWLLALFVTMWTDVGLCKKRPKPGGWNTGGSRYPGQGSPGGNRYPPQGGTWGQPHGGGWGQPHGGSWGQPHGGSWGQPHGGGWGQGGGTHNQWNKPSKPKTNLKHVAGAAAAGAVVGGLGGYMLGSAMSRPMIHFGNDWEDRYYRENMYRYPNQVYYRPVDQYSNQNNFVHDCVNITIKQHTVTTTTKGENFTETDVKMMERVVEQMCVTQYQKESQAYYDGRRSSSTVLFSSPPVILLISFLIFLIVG

The assay concerns the target globular domain of mouse prion protein (Mus musculus, UniProt P04925). In words: crystal structure.

B1: Fab fragment of the anti-prion monoclonal antibody POM1 (Fab, V domains shown)
VH: QVQLQQSGTELVMPGASVKMSCKASGYTFTDYWMHWVKQRPGQGLEWIGSIDPSDSYTSHNEKFKGKATLTVDESSSTAYMQLSSLTSEDSAVYFCSRSGYGYYAMEYWGQGTSVTVSS
VL: DIVLTQSPAILSVSPGERVSFSCRASQNIGTSIHWYQQRTNESPRLIIKYASESISGIPSRFSGSGSGTDFTLSINSVESEDIADYYCQQSNTWPYTFGGGTKLELK
Turning to B1, the binding result is reported as “binds”.
